Our source for the Ratio Ki values is ChEMBL document CHEMBL4673223, “Synthesis, Biological, and Structural Explorations of New Zwitterionic Derivatives of 14- O-Methyloxymorphone, as Potent μ/δ Opioid Agonists and Peripherally Selective Antinociceptives” (J Med Chem, 2019).

This experiment can be described thus: Selectivity index, ratio of Ki for displacement of [3H]U69,593 from kappa opioid receptor in guinea-pig brain membranes to Ki for displacement of [3H]DAMGO from mu opioid receptor in rat brain membranes. Format: cell membranes. The essentials: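 Guinea-pig brain membranes (0.3–0.5 mg protein) in 50 mM Tris-HCl, pH 7.4, were incubated with 1 nM [3H]U69,593 for 30 min at 30 °C, with 10 μM naloxone defining nonspecific binding. MOR was measured on rat brain membranes with 1 nM [3H]DAMGO for 45 min at 35 °C. Samples were filtered and scintillation counted, and Ki was obtained by Cheng–Prusoff; duplicates, 3–4 experiments.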

With `CO[C@@]12CCC(=O)[C@@H]3Oc4c(O)ccc5c4[C@@]31CCN(C)[C@@H]2C5`, the Ratio Ki was found to be 102.
